Assay results taken from patent publication US20100284967A1 (US Dept. of Health and Human Services, published 2010).

Molecular target: T1, gpD-deficient lambda phage capsids (λ D1180, genome about 80% of wild-type size) (bacteriophage lambda, UniProt P03713 1-341)
T1 sequence: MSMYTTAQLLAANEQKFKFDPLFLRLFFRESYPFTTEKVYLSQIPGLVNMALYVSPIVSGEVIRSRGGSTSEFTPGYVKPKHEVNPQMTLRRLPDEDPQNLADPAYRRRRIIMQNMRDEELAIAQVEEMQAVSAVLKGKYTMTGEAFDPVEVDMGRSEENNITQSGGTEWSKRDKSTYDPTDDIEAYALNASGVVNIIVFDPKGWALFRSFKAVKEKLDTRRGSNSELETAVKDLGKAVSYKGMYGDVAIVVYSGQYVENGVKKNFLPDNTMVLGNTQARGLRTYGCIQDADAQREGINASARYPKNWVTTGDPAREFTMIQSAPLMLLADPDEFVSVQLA
Assay: cell-based or functional assay

B1: His6-tagged recombinant gpD protein (bacteriophage lambda major coat protein gpD, expressed in E. coli) (other)
chain: MTSKETFTHYQPQGNSDPAHTATAPGGLSAKAPAMTPLMLDTSSRKLVAWDGTTDGAAVGILAVAADQTSTTLTFYKSGTFRYEDVLWPEAASDETKKRTAFAGTAISIV
Q: B1 was tested. Which “EDTA resistance of phage titer (plaque assay on LE392 E. coli)” value did it give?
A: The value was ≥ 5 fold molar excess of exogenous gpD over predicted gpD binding sites.
